For at least one entry, the source does not settle the construct or the ends of the probe. At least one verdict was read from the data and is not stated in words by the source. Protein sequences can lack the tags named with them.
Molecular target: T1, WT DprA (Streptococcus pneumoniae) (UniProt Q8DPI7)
T1 sequence (looked up, limits assumed): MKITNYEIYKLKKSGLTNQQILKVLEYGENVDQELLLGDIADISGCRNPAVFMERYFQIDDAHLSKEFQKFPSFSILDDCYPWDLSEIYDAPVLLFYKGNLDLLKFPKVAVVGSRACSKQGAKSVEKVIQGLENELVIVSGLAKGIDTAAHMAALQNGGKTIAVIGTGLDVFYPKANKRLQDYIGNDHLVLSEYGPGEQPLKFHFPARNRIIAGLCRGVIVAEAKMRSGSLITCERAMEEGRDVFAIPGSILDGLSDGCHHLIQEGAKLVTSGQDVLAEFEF
Assay: pull-down
Conditions: 20-640 pmol protein, 80 pmol DNA; Pull-down: 200 mM NaCl, 20 mM Tris-HCl pH 7.5, 20 C, 30 min; recombinant protein; single-stranded DNA

“CGTCGTTTTACAACGTCGTGACTGGGAAAACCCTGGCGTTACCCAACTTAATCGCCTTGCAGCA [65-mer oligonucleotide]”: binds.

Reference: PMC4066776
